Data on 74 compounds can be found in PubChem BioAssay AID485341 (National Center for Advancing Translational Sciences (NCATS), 2010).

Chains of the proteins cited; added tags and fusions are not shown.
UniProt P00811, whole entry: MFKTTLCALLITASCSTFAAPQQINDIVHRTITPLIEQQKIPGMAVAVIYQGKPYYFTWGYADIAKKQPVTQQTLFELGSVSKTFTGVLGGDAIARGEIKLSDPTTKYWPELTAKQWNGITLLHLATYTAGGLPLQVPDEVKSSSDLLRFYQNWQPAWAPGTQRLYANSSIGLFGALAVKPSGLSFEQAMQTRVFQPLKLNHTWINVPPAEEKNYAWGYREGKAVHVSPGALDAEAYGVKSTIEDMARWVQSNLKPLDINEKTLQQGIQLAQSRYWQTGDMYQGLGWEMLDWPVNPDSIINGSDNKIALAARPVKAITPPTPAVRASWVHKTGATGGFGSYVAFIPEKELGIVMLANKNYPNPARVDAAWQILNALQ

Molecules are shown by their SMILES. The entries are a selection whose mix differs from that of the whole data set. Some structures show a salt or complex split into parts, the way the source records it. Active and inactive are the calls of the source. Calls follow the shape of the dose curve; as a rule, active = well fitted inhibition curve with a large enough effect; inconclusive = small, poorly fitted or top-dose-only effect; inactive = no such curve, though single readings can be large or run the other way.

This assay has as its target Beta-lactamase (Escherichia coli (strain K12)) (UniProt P00811). The experiment in a line: qHTS Inhibitors of AmpC Beta-Lactamase (assay without detergent). Also: nearly all actives have a fitted effect of over 20% in size. The following applies: AmpC nitrocefin hydrolysis, absorbance 480 nm, 0.0001% Triton; at 57.1 µM (top of the series) unless noted. The protocol:
NIH Molecular Libraries Probe Production Network [MLPCN] NIH Chemical Genomics Center [NCGC] Assay Provider: Professor Brian Shoichet, UCSF Assay Overview: This aggregation profiling approach exploits the sensitivity of aggregate formation to detergent. Inhibition of b-lactamase is measured in the presence and absence of 0.01% Triton X-100. This particular assay had the prescence of 0.01% Triton X-100. See Pubchem assay "Promiscuous and Specific Inhibitors of AmpC Beta-Lactamase (assay without detergent)" for related screen. Compounds that inhibit only in the absence of detergent are considered likely promiscuous aggregators. A screen of 1,030 compounds was performed in Brian Shoichet's lab in 96-well format. AmpC activity was measured by following the absorbance at 480 nm. Nitrocefin is a chromogenic substrate: while nitrocefin is yellow (lmax 390 nm), the product of its hydrolysis is red (lmax 486 nm, 17,000 M-1). AmpC beta lactamase was provided by Shoichet Lab, UCSF.
Buffer: 20 mM phosphate buffer, pH 7.0 Triton X-100: No Detergent screen: 0.0001%, Detergent screen: 0.01%. Reagents/Controls: Buffer in columns 3 and 4 as negative control (no enzyme). 5.3 nM AmpC in columns 1, 2, 5-48. Titration of UCSF compound 9 control (from 10 mM, then 1:2) pin-transferred to column 2. Column 1 is neutral (100% activity). Assay Steps: Six uL of reagents were dispensed to 1536-well Greiner black clear bottom plates. Compounds and controls (23 nL) were transferred via Kalypsys PinTool. The plates were incubated for 15 min at room temperature, and then 2 uL of 800 uM solution of nitrocefin was added to start the reaction. The plates were immediately transferred to and read every 20 seconds for 4 min on ViewLux (Perkin-Elmer) High-throughput CCD imager using 480 nm absorbance protocol. During dispense, reagent bottles were kept submerged into 4 deg C water bath. Keywords: NIH Roadmap, MLSCN, MLI, MLSMR, qHTS, NCGC, AmpC Beta-Lactamase, Aggregation
Turning to `O=C(NCC1(N2CCCCC2)CCCCC1)c1ccc(Cl)nc1`, the activity change, negative = inhibition is inactive: 1.98%. Under `Cc1cc(C)cc(N(C(=O)c2ccccc2)C2CCN(C(=O)OC(C)(C)C)CC2)c1` stands inactive: 137%; under `O=C(NCC1(N2CCOCC2)CCCCC1)c1cc2ccccc2o1`, inactive: -13.3%; under `O=C(OC1CN2CCC1CC2)C1c2ccccc2Oc2ccccc21` (centres undefined), inactive: 7.24%. Under `O=C(NCC1(N2CCCCC2)CCCCC1)c1ccc(Cl)s1` stands inactive: -4.53%. Take `N#CC1(Nc2ccccc2)CCN(Cc2ccccc2)CC1`: the activity change, negative = inhibition was inactive: -6.2%. The value for `COc1ccc(Cl)cc1C(=O)NCC1(N2CCOCC2)CCCCC1` was inactive: 23.1%; that for `CCOC(=O)N1CCC(Nc2ccc(OC)cc2)CC1` was inactive: -16.1%. Under `COc1ccc(C(=O)NCC2(N3CCCCC3)CCCCC2)cc1` stands inactive: -4.81%. Under `CC(C)(C)OC(=O)N1CCC(N(C(=O)c2ccccc2)c2ccc(F)cc2)CC1` stands inactive: 67.6%. For the compound `COc1ccc(C(=O)NCC2(N3CCCCC3)CCCCC2)c(OC)c1OC`, the activity change, negative = inhibition was inactive: -13.2% [at 2.29 µM]. For the compound `O=C(NCC1(N2CCCCC2)CCCCC1)c1ccc(=O)[nH]c1`, the activity change, negative = inhibition was inactive: -7.17%.

On to `O=C(NCC1(N2CCCCC2)CCCCC1)c1cccs1`, for which the activity change, negative = inhibition is inactive: -22.2%. Take `CSc1ccccc1C(=O)NCC1(N2CCCCC2)CCCCC1`: the activity change, negative = inhibition is inactive: 22%.

In the case of `COc1cc(C(=O)NCC2(N(C)C)CCCCC2)ccc1OC(F)F`, the activity change, negative = inhibition was inactive: -13%. Under `CCOC(=O)N1CCC(Nc2cccc(C)c2)CC1` stands inactive: -11.8%; under `Cc1ccc(OCC(C)C)c(CN(CCCl)CCCl)c1`, inactive: -3.68%.

Consider `CCOc1ccc(C)cc1CN(CCCl)CCCl`, for which the activity change, negative = inhibition is inactive: -1.97%.

As to `O=C(NCC1(N2CCCCC2)CCCCC1)c1ccc(F)cc1`, the activity change, negative = inhibition was inactive: -19.2%.

Take `CCCCOc1ccc(C(=O)NCC2(N3CCOCC3)CCCCC2)cc1`: the activity change, negative = inhibition is inactive: 41.6%. Under `COc1ccc(NC2CCN(CCc3ccccc3)CC2)c(OC)c1` stands inactive: -8.57%; under `CCOC(=O)N1CCC(Nc2ccc(F)cc2)CC1`, inactive: -7.58%; under `O=[N+]([O-])c1cc([N+](=O)[O-])c(NCC2CCS(=O)(=O)C2)c([N+](=O)[O-])c1` (centres undefined), inactive: -24.3%. As for `O=C(NCC1(N2CCCCC2)CCCCC1)c1cccc(C(F)(F)F)c1`, the activity change, negative = inhibition is inactive: -10.9%.

With `COc1cc(C(=O)NCC2(N3CCCCC3)CCCCC2)ccc1OC(F)F`, the activity change, negative = inhibition was inactive: -0.667%. Consider `O=C(NCC1(N2CCOCC2)CCCCC1)c1cc(=O)[nH]c2ccccc12`, for which the activity change, negative = inhibition was inactive: -10.9%. The value for `CN1CCN(CCOC(=O)C(O)(c2ccccc2)c2ccccc2)CC1` was inactive: -3.19%. `CC(C)c1ccc(C(=O)NCC2(N3CCOCC3)CCCCC2)cc1`: the activity change, negative = inhibition is inactive: 49%. On to `COc1ccc(NC2CCN(C(=O)OC(C)(C)C)CC2)cc1`, for which the activity change, negative = inhibition was inactive: 55.1%.

Turning to `O=C(NCC1(N2CCCCC2)CCCCC1)c1ccc(OC(F)F)cc1`, the activity change, negative = inhibition is inactive: -12%. Under `CCN1CCC(Nc2ccc(Cl)cc2)CC1` stands inactive: -5.79%. In the case of `N#CC1(Nc2ccccc2)CCN(CCc2ccccc2)CC1`, the activity change, negative = inhibition is inactive: -17.3%.

With `O=C(NCC1(N2CCCCC2)CCCCC1)c1cccc([N+](=O)[O-])c1`, the activity change, negative = inhibition was inactive: -10.6%. The value for `CSc1ccc(C(=O)NCC2(N3CCOCC3)CCCCC2)cc1` was inactive: -8.46%. With `O=C(OC1CN2CCC1CC2)c1ccc([N+](=O)[O-])cc1` (centres undefined), the activity change, negative = inhibition is inactive: -10.2%. The value for `COc1ccc2c(c1O)-c1c(O)c(OC)cc3c1[C@H](C2)[N+](C)(C)CC3.O=[N+]([O-])c1cc([N+](=O)[O-])c([O-])c([N+](=O)[O-])c1[O-]` was inactive: 29%. The value for `O=C(NCC1(N2CCCCC2)CCCCC1)c1cncc(Br)c1` was inactive: -24%. Under `CCCOc1ccc(C(=O)NCC2(N(C)C)CCCCC2)cc1OC` stands inactive: -10.2%; under `CC(C)c1ccc(NC2CCN(C(=O)OC(C)(C)C)CC2)cc1`, inactive: 104%.

In the case of `COc1ccc(CN(CCCl)CCCl)cc1Cl`, the activity change, negative = inhibition is inactive: -5.62%. Consider `O=[N+]([O-])c1cc([N+](=O)[O-])c(OC2CCCCC2O)c([N+](=O)[O-])c1` (centres undefined), for which the activity change, negative = inhibition is inactive: -12.5%. The value for `CN(C)c1cccc(C(=O)NCC2(N3CCCCC3)CCCCC2)c1` was inactive: -46.9%; that for `COc1cc(OC)c(C(=O)NCC2(N(C)C)CCCCC2)cc1OC` was inactive: -9.05%; that for `O=C(NCC1(N2CCOCC2)CCCCC1)c1cc(F)c(F)cc1Cl` was inactive: -14.3%. Under `CCOC(=O)N1CCC(Nc2ccc(C)cc2)CC1` stands inactive: 13.2%. The value for `N/C(=N\O)c1c(N)no[n+]1[O-]` was inactive: -23.5%; that for `O=C(OC1CN2CCC1CC2)C1c2ccccc2C=Cc2ccccc21` (centres undefined) was inactive: -9.51%. For the compound `CCc1cc(C(=O)NCC2(N3CCCCC3)CCCCC2)sc1C`, the activity change, negative = inhibition is inactive: -16.6%.

Consider `O=C(O)c1cccc(Nc2c([N+](=O)[O-])cc([N+](=O)[O-])cc2[N+](=O)[O-])c1`, for which the activity change, negative = inhibition is inactive: -5.11%. On to `COc1cc(C(=O)NCC2(N3CCOCC3)CCCCC2)cc(OC)c1C`, for which the activity change, negative = inhibition was inactive: 2.76%. As for `O=C(NCC1(N2CCOCC2)CCCCC1)c1cc(Br)ccc1Cl`, the activity change, negative = inhibition was inactive: -8.3%. The value for `COc1ccc(C(=O)NCC2(N3CCOCC3)CCCCC2)cc1OC` was inactive: -15.7%.

With `CN(C)C1(CNC(=O)c2cccc(C#N)c2)CCCCC1`, the activity change, negative = inhibition was inactive: -22%. The value for `c1ccc(CN2CCC(Nc3ccccc3)CC2)cc1` was inactive: -2.89%. Under `CCCN1CCC(Nc2cc(OC)cc(OC)c2)CC1` stands inactive: 19.4%.

Regarding `N#Cc1ccc(C(=O)NCC2(N3CCCCC3)CCCCC2)cc1`, the activity change, negative = inhibition is inactive: -15.6%. The value for `CC(C)(C)OC(=O)N1CCC(N(C(=O)c2ccccc2)c2ccc(Cl)cc2)CC1` was inactive: 119%; that for `CCOC(=O)C(CC)C1=NC(C)(C)Cc2ccccc21.O=[N+]([O-])c1cc([N+](=O)[O-])c(O)c([N+](=O)[O-])c1` (centres undefined) was inactive: -10.8%; that for `CCN1CCC(Nc2cccc(F)c2)CC1` was inactive: 0.291%. In the case of `O=C(NCC1(N2CCCCC2)CCCCC1)c1ccco1`, the activity change, negative = inhibition is inactive: -9.03%. Under `CN(C)c1ccc(C(=O)NCC2(N3CCCCC3)CCCCC2)cc1` stands inactive: -16%; under `COc1cc(OC)cc(C(=O)NCC2(N3CCCCC3)CCCCC2)c1`, inactive: 2.36%. Under `Cc1ccc(C(=O)NCC2(N3CCCCC3)CCCCC2)o1` stands inactive: -9.91%; under `Fc1ccccc1NC1CCN(Cc2ccccc2)CC1`, inactive: -17.3%. Under `COc1cc(OC)cc(C(=O)NCC2(N3CCOCC3)CCCCC2)c1` stands inactive: -32.7%; under `COc1cccc(C(=O)N(c2cc(C)cc(C)c2)C2CCN(C(=O)OC(C)(C)C)CC2)c1`, inactive: 102%; under `CCC(CO)(C(=O)OC1CN2CCC1CC2)c1ccccc1` (centres undefined), inactive: -2.09%. Turning to `CN1CCC(Nc2ccc(Cl)cc2)CC1`, the activity change, negative = inhibition was inactive: -5.13%. For the compound `CCCOc1ccc(C)cc1CN(CCCl)CCCl`, the activity change, negative = inhibition is inactive: -8.4%.

As to `CCOc1ncccc1C(=O)NCC1(N2CCOCC2)CCCCC1`, the activity change, negative = inhibition was inactive: -1.33%. For the compound `CN1CCC(Nc2ccc(F)c(Cl)c2)CC1`, the activity change, negative = inhibition was inactive: -6%. Under `CC(C)(C)OC(=O)N1CCC(Nc2ccccc2)CC1` stands inactive: 17.9%. With `O=C(O)C1(Nc2ccccc2)CCN(Cc2ccccc2)CC1`, the activity change, negative = inhibition is inactive: -4.95%.

For the compound `CCCOc1ccc(C(=O)NCC2(N(C)C)CCCCC2)cc1`, the activity change, negative = inhibition is inactive: -2.48%.
